Results as given in the NIST ThermoML archive (doi:10.1021/acs.jced.8b00590).
Numbers after ± are expanded uncertainties.

Assay: xn = mol fraction of the nth substance listed
Conditions: 101.3 kPa, Liquid; for mass density: Vibrating tube method; for viscosity: Falling or rolling sphere viscometry

O=S(=O)(F)[N-]S(=O)(=O)F.[Li+] [lithium bis(fluorosulfonyl)imide] + CCCCC#N
Conditions	mass density, 283.15 K [kg/m3]	mass density, 293.15 K [kg/m3]	mass density, 303.15 K [kg/m3]	mass density, 313.15 K [kg/m3]	mass density, 323.15 K [kg/m3]	mass density, 333.15 K [kg/m3]	viscosity, 293.15 K [mPa·s]	viscosity, 313.15 K [mPa·s]	viscosity, 333.15 K [mPa·s]
x1 = 0.0499	–	–	–	–	–	–	1.336 ± 0.068	0.9852 ± 0.05	0.7657 ± 0.039
x1 = 0.1	927.9 ± 2.8	919.1 ± 2.8	910.3 ± 2.7	901.5 ± 2.7	892.6 ± 2.7	883.8 ± 2.7	2.521 ± 0.041	1.723 ± 0.024	1.276 ± 0.065
x1 = 0.1997	1053.5 ± 3.2	1044.4 ± 3.1	1035.3 ± 3.1	1026.2 ± 3.1	1017.1 ± 3.1	1008.1 ± 3	11.67 ± 0.19	6.606 ± 0.091	4.215 ± 0.053
x1 = 0.2999	1166.4 ± 3.5	1157.2 ± 3.5	1148 ± 3.5	1138.8 ± 3.4	1129.7 ± 3.4	1120.6 ± 3.4	41.82 ± 0.57	21.07 ± 0.3	12.21 ± 0.17
x1 = 0.3443	–	–	–	–	–	–	65.03 ± 0.95	30.47 ± 0.45	16.88 ± 0.24
x1 = 0.4076	1277.3 ± 3.8	1267.8 ± 3.8	1258.4 ± 3.8	1249 ± 3.8	1239.8 ± 3.7	1230.6 ± 3.7	123.64 ± 4	53.2 ± 0.73	27.5 ± 0.4
x1 = 0.4999	–	–	–	–	–	–	382.17 ± 26	117.83 ± 3.8	59.39 ± 0.89
